# Genome-wide point mutation profile of HIV-1: Gag

Source: Al-Mawsawi et al. 2014 (doi:10.1186/s12977-014-0124-6), supplementary data.

Protein: Gag of HIV-1 NL4-3, numbered from its first residue. Gag is numbered as the whole polyprotein.
Effects on overlapping genes or RNA elements are not listed.

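Random point mutant libraries of HIV-1 NL4-3, one for each of seven fragments, were passaged in CEM T lymphocytes. The RC index is the frequency of a change after passage round 2 divided by its frequency in the plasmid library.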

Values are the RC index; higher means better tolerated. The authors read about 0.1 or less as lethal, 0.1-0.2 as attenuated and 0.2 or more as tolerated. Substitutions are written as wild-type residue, site number, new residue. The authors read an index above 1 as above wild type (1.9% of all changes in the genome).

{"substitution": "G10A", "base": "G818C", "region": "MA", "RC index": 0.0339}
{"substitution": "I19T", "base": "T845C", "region": "MA", "RC index": 0.0598}
{"substitution": "R20L", "base": "G848T", "region": "MA", "RC index": 0.0565}
{"substitution": "R22G", "base": "A853G", "region": "MA", "RC index": 0.206}
{"substitution": "K32E", "base": "A883G", "region": "MA", "RC index": 0.0774}
{"substitution": "W36C", "base": "G897T", "region": "MA", "RC index": 0.178}
{"substitution": "E40K", "base": "G907A", "region": "MA", "RC index": 0.0790}
{"substitution": "A45S", "base": "G922T", "region": "MA", "RC index": 0.108}
{"substitution": "G62E", "base": "G974A", "region": "MA", "RC index": 0.195}
{"substitution": "Y79H", "base": "T1024C", "region": "MA", "RC index": 0.130}
{"substitution": "Y79F", "base": "A1025T", "region": "MA", "RC index": 0.0249}
{"substitution": "A83T", "base": "G1036A", "region": "MA", "RC index": 0.135}
{"substitution": "C87S", "base": "G1049C", "region": "MA", "RC index": 0.0508}
{"substitution": "D102V", "base": "A1094T", "region": "MA", "RC index": 0.0654}
{"substitution": "E106V", "base": "A1106T", "region": "MA", "RC index": 0.0458}
{"substitution": "S111I", "base": "G1121T", "region": "MA", "RC index": 0.0828}
{"substitution": "N124D", "base": "A1159G", "region": "MA", "RC index": 0.0298}
{"substitution": "N124K", "base": "C1161G", "region": "MA", "RC index": 0.0241}
{"substitution": "N131D", "base": "A1180G", "region": "MA", "RC index": 0.0309}
{"substitution": "I134M", "base": "A1191G", "region": "CA", "RC index": 0.0460}
{"substitution": "A146G", "base": "C1226G", "region": "CA", "RC index": 0.183}
{"substitution": "P149A", "base": "C1234G", "region": "CA", "RC index": 0.0354}
{"substitution": "V168A", "base": "T1292C", "region": "CA", "RC index": 0.115}
{"substitution": "E177K", "base": "G1318A", "region": "CA", "RC index": 0.155}
{"substitution": "N189D", "base": "A1354G", "region": "CA", "RC index": 0.0568}
{"substitution": "D213H", "base": "G1426C", "region": "CA", "RC index": 0.0804}
{"substitution": "T242I", "base": "C1514T", "region": "CA", "RC index": 0.0553}
{"substitution": "K263E", "base": "A1576G", "region": "CA", "RC index": 0.0886}
{"substitution": "K263N", "base": "A1578T", "region": "CA", "RC index": 0.0509}
{"substitution": "D298G", "base": "A1682G", "region": "CA", "RC index": 0.0680}
{"substitution": "D329G", "base": "A1775G", "region": "CA", "RC index": 0.0620}
{"substitution": "A360P", "base": "G1867C", "region": "CA", "RC index": 0.0629}
{"substitution": "V362A", "base": "T1874C", "region": "CA", "RC index": 0.0880}
{"substitution": "A366P", "base": "G1885C", "region": "p2", "RC index": 0.0702}
{"substitution": "N372T", "base": "A1904C", "region": "p2", "RC index": 0.0600}
{"substitution": "F393I", "base": "T1966A", "region": "NC p7", "RC index": 0.0166}
{"substitution": "E398G", "base": "A1982G", "region": "NC p7", "RC index": 0.0743}
{"substitution": "G399E", "base": "G1985A", "region": "NC p7", "RC index": 0.271}
{"substitution": "A431T", "base": "G2080A", "region": "NC p7", "RC index": 0.220}

Extract of 3 entries:

| substitution | base | region | RC index |
|---|---|---|---|
| A45S | G922T | MA | 0.108 |
| Y79F | A1025T | MA | 0.0249 |
| V168A | T1292C | CA | 0.115 |

Nucleotide positions follow pNL4-3. Clones carried about five changes per kilobase, which can drag down the index of neutral changes.